Taken from: PubChem BioAssay AID624099 (ICCB-Longwood, 2012)
The deposit covers about 21,000 reagents; this is a part drawn at random. 497 of them (2.4%) count as active. 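Higher z means weaker E2 silencing; only reporter increases were scored, and knock-downs that hurt cell survival may mask genuine repressor factors.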 A number with no mark means an inactive call.

Purpose: 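Host factors E2 relies on to silence an HPV18 LCR reporter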 (primary screen)
System: human C33A cervical carcinoma cells (HPV-negative) stably expressing BPV1 E2 and an HPV18 LCR luciferase reporter
Reagent: siRNA pool against human genes, 40 nM
Time to read-out: 72 h
Detection: 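HPV18 LCR reporter light per well, converted to plate-wise z-scores that exclude control wells, and averaged over triplicate plates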
Reading the numbers: mean z-score and z-score: higher = stronger reporter signal, weaker E2 silencing
Rule for the call: 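Hit if mean z-score reaches 2 and two or more of three replicate z-scores also reach 2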

target,mean z-score,"z-score, replicate A","z-score, replicate B","z-score, replicate C"
IER3IP1 (immediate early response 3 interacting protein 1),-0.74,-0.47,-0.99,-0.76
MDP1 (magnesium dependent phosphatase 1),-0.63,-0.98,-0.07,-0.82
DLX4 (distal-less homeobox 4),-0.48,-0.02,-0.68,-0.74
ANKRD34C (ankyrin repeat domain 34C),-0.98,-0.85,-1.15,-0.95
"RBSN (rabenosyn, RAB effector)",0.28,0.61,0.34,-0.12
SUSD5 (sushi domain containing 5),0.13,0.14,0.16,0.07
NAP1L4 (nucleosome assembly protein 1 like 4),-0.68,-0.6,-0.73,-0.71
PCIF1 (phosphorylated CTD interacting factor 1),1.56,1.02,1.19,2.47
DDX23 (DEAD-box helicase 23),-0.04,0.14,-0.23,-0.04
RASSF2 (Ras association domain family member 2),-0.21,-0.08,-0.2,-0.35
"CASTOR3P (CASTOR family member 3, pseudogene)",0.49,0.49,0.25,0.74
COPS3 (COP9 signalosome subunit 3),0.09,0.03,0.19,0.03
ENDOV (endonuclease V),0.94,0.91,0.8,1.11
FAAH (fatty acid amide hydrolase),1.36,1.45,1.18,1.44
ITM2B (integral membrane protein 2B),-0.43,-0.3,-0.4,-0.59
SULT4A1 (sulfotransferase family 4A member 1),0.92,0.57,0.94,1.26
PDZD7 (PDZ domain containing 7),0.38,0.18,0.37,0.59
HPF1P1 (HPF1 pseudogene 1),-1.01,-0.85,-1.15,-1.01
SNX24 (sorting nexin 24),1.81,1.79,1.74,1.9
ADAMTS7 (ADAM metallopeptidase with thrombospondin type 1 motif 7),-1.4,-0.93,-1.64,-1.64
UBXN6 (UBX domain protein 6),0.51,0.27,0.61,0.64
HIP1 (huntingtin interacting protein 1),0.82,0.93,0.81,0.71
LINC00698 (long independently transcribed non-coding RNA 698),0.02,-0.06,-0.04,0.15
"ARAP1 (ArfGAP with RhoGAP domain, ankyrin repeat and PH domain 1)",0.79,0.94,1.04,0.38
LOC388134 (retired record),-4.01,-3.74,-4.32,-3.98
PINLYP (phospholipase A2 inhibitor and LY6/PLAUR domain containing),1.52,1.49,1.48,1.6
SZRD1 (SUZ RNA binding domain containing 1),0.84,0.72,0.53,1.26
"PABPN1L (PABPN1 like, cytoplasmic)",-0.23,-0.36,-0.28,-0.06
IFT122 (intraflagellar transport 122),1.33,1.58,1.39,1.02
WFDC12 (WAP four-disulfide core domain 12),-0.9,-0.99,-0.78,-0.93
RTKN (rhotekin),0.09,-0.1,0.28,0.09
EGLN1 (egl-9 family hypoxia inducible factor 1),-0.11,-0.39,-0.17,0.22
"ERCC8 (ERCC excision repair 8, CSA ubiquitin ligase complex subunit)",0.26,0.15,0.51,0.12
MAP3K4 (mitogen-activated protein kinase kinase kinase 4),0.86,1.04,0.53,1.02
LINC01951 (long independently transcribed non-coding RNA 1951),0.55,0.34,0.8,0.5
BIK (BCL2 interacting killer),0.16,0.57,-0.08,0
OR10A5 (olfactory receptor family 10 subfamily A member 5),1.09,0.74,1.07,1.47
SSX5 (SSX family member 5),-0.01,0.13,0.04,-0.19
"TEX14BP (testis expressed 14B, pseudogene)",-1.28,-0.67,-1.99,-1.17
SYNPO2 (synaptopodin 2),1.78,2.31,1.71,1.32
IFT22 (intraflagellar transport 22),-0.28,0.14,-0.46,-0.52
SLC66A1LP,-0.3,0.33,-0.65,-0.57
PTPRE (protein tyrosine phosphatase receptor type E),-1.64,-1.69,-1.65,-1.59
GRAPL (GRB2 related adaptor protein like),0.05,0.35,-0.28,0.06
KRTAP10-12 (keratin associated protein 10-12),0.09,-0.18,0.42,0.02
P4HA2 (prolyl 4-hydroxylase subunit alpha 2),0.82,0.5,0.84,1.11
CEBPG (CCAAT enhancer binding protein gamma),-0.65,-0.59,-0.62,-0.73
PHOX2B (paired like homeobox 2B),0.26,0.19,0.21,0.39
RBM25 (RNA binding motif protein 25),-1.47,-1.14,-1.53,-1.73
GSEC (G-quadruplex forming sequence containing lncRNA),-0.77,-0.68,-1.15,-0.48
SVIL (supervillin),-0.63,-0.79,-0.44,-0.65
DHX58 (DExH-box helicase 58),-0.34,-0.42,-0.09,-0.51
MANBAL (mannosidase beta like),0.41,0.59,0.31,0.31
PEAK3 (PEAK family member 3),-0.78,-0.79,-1.04,-0.51
CA13 (carbonic anhydrase 13),-0.53,,-0.48,-0.57
SMIM34 (small integral membrane protein 34),-1.35,-1.19,-1.45,-1.41
VN1R2 (vomeronasal 1 receptor 2),1.71,1.88,1.67,1.58
